From US12139742B2, “Devices, systems, and methods for preparing a standardized inoculum for antimicrobial susceptibility testing” (Avails Medical, Inc., priority 2020, dated 2024)

How the values were obtained:
[1] = system: 23 different positive blood culture (PBC) samples comprising seven different species of bacteria; experiment: VITEK 2 GN81 automated AST of 0.5 McFarland inocula (present method vs traditional subculture); format: cell-based; conditions: for % CA: categorical agreement; for % EA: essential agreement
Experimental: (§1) Both the present method 1700 and traditional microbial subculturing techniques were used to prepare standardized 0.5 McFarland inocula for AST using Kirby-Bauer disk diffusion (see Table 1) and the automated VITEK2 GN81 AST platform (see Table 2).
(§2) Two sets of standardized 0.5 McFarland inocula were prepared from 23 different positive blood culture (PBC) samples comprising seven different species of bacteria. The 23 PBC samples included six samples of Escherichia coli (ECo), two samples of Enterobacter cloacae (ECl), three samples of Klebsiella pneumoniae (KPn), four samples of Klebsiella oxytoca (KOx), two samples of Citrobacter freundii (CFr), four samples of Serratia marcescens (SMa), and two samples of Klebsiella aerogenes (KAe).
(§3) The first set was prepared using the presently disclosed method 1700 (sample preparation time: between 60 minutes and 180 minutes) and the second set was prepared using traditional microbial subculturing techniques (sample preparation time: between 18 hours to 24 hours). The testing was conducted using the automated VITEK®2 GN81 AST platform (see Table 1) and manual Kirby-Bauer disk diffusion (see Table 2).

[2] = system: 23 different positive blood culture (PBC) samples comprising seven different species of bacteria; experiment: Kirby-Bauer disk diffusion AST of 0.5 McFarland inocula (present method vs traditional subculture); format: cell-based; conditions: categorical agreement
Text: The standardized inoculum 1726 (e.g., the 0.5 McFarland inoculum) can then be used directly for antimicrobial susceptibility testing using manual disk diffusion or diluted further for automated AST platforms. For example, the standardized inoculum 1726 prepared using the method 1700 and system 1702 disclosed herein can be subjected to manual Kirby-Bauer disk diffusion AST or an automated AST platform such as the VITEK®2 platform.
as §1, §2, §3
In total, 296 minimum inhibitory concentrations (MICs) from the VITEK®2 GN81 platform and 224 zone sizes on disk diffusion were evaluated.

[3] = listed as piperacillin-tazobactam

Row | Compound | % CA [1] | % EA [1] | % CA [2] | % CA ([2]; listed as ertapenem) | % CA [1, 3] | % EA [1, 3]
1 | CC(C)(O/N=C(\C(=O)N[C@@H]1C(=O)N2C(C(=O)[O-])=C(C[n+]3ccccc3)CS[C@H]12)c1csc(N)n1)C(=O)O [Ceftazidime] | 100% | 95.7% |  |  |  | 
2 | C[C@@H](O)[C@H]1C(=O)N2C(C(=O)O)=C(S[C@@H]3CN[C@H](C(=O)Nc4cccc(C(=O)O)c4)C3)[C@H](C)[C@H]12 [Ertapenem] |  |  | 82.6% | 82.6% |  | 
3 | Gentamicin | 87% | 100% |  |  |  | 
4 | Piperacillin-tazobactam | 88.9% | 88.9% | 100% |  | 88.9% | 88.9%
5 | NCC[C@H](O)C(=O)N[C@@H]1C[C@H](N)[C@@H](O[C@H]2O[C@H](CN)[C@@H](O)[C@H](O)[C@H]2O)[C@H](O)[C@H]1O[C@H]1O[C@H](CO)[C@@H](O)[C@H](N)[C@H]1O [Amikacin] | 100% | 95.7% |  |  |  | 
6 | NC[C@H]1O[C@H](O[C@H]2[C@H](O)[C@@H](O[C@H]3O[C@H](CO)[C@@H](O)[C@H](N)[C@H]3O)[C@H](N)C[C@@H]2N)[C@H](N)C[C@@H]1O [Tobramycin] | 95.7% | 100% | 91.3% |  |  | 
7 | CO[C@@]1(NC(=O)Cc2cccs2)C(=O)N2C(C(=O)O)=C(COC(N)=O)CS[C@@H]21 [Cefoxitin] | 100% | 100% | 100% |  |  | 
8 | C[C@@H](O)[C@H]1C(=O)N2C(C(=O)O)=C(S[C@@H]3CN[C@H](C(=O)N(C)C)C3)[C@H](C)[C@H]12 [Meropenem] | 100% | 95.2% | 91.3% |  |  | 
